Measured values from several laboratories, pooled; numbers as filed in NIAID ChemDB.

Common to all: tests in culture

Zones are inhibition diameters on agar.

smiles	cell line	measure	setting	method	strain	agent	changes	tested at	value
Nc1ccn(C[C@@H](CO)OCP(=O)(O)O)c(=O)n1	REF-5	EC50		plaque count		Rat cytomegalovirus			0.5 µM
Cc1ccc(-n2cc(C(C)(C)O)nn2)cc1C		inhibition		broth dilution	URM 4970	Candida parapsilosis		2048 µg/mL	0%
CCC(C)n1ncn(-c2ccc(N3CCN(c4ccc(OC[C@H]5CO[C@](Cn6cncn6)(c6ccc(Cl)cc6Cl)O5)cc4)CC3)cc2)c1=O		inhibition		broth dilution	AF293	Aspergillus fumigatus	mpkC	64 µg/mL	99.99%
CCC(C)CC(C)CCCCCCCCC(=O)N[C@H]1C[C@@H](O)[C@H](NCCN)NC(=O)[C@@H]2[C@@H](O)CCN2C(=O)[C@H]([C@H](O)CCN)NC(=O)[C@H]([C@H](O)[C@@H](O)c2ccc(O)cc2)NC(=O)[C@@H]2C[C@@H](O)CN2C(=O)[C@H]([C@@H](C)O)NC1=O		MIC		broth dilution	CBS 10514	Cryptococcus gattii			16 µg/mL
CCCC(CCC)C(NC(C)=O)C1CC(C(=O)O)CC1N=C(N)N	MDCK	EC50			Panama/45/90	Influenza B virus			1.6 µM
Nc1ncnc2c1ncn2[C@@H]1C=C[C@@H](O)[C@H]1O	CV-1	EC50		neutral red		Measles virus			1 µg/mL
OC[C@H]1O[C@@H](n2c(Br)nc3cc(Cl)c(Cl)cc32)[C@H](O)[C@@H]1O	MRC-5	EC50		virus yield	AD169	Human cytomegalovirus			0.018 µM
Nc1ncnc2c1ncn2[C@H]1C[C@H](O)[C@H](O)[C@@H]1O	CV-1	EC50		neutral red		Measles virus			1 µg/mL
COc1ccc2oc(=O)n(-c3cccc(Cl)c3)c(=S)c2c1		MIC	14 d		My 235/80	Mycobacterium kansasii			16 µM
Nc1c(S(=O)(=O)O)cc2cc(S(=O)(=O)O)cc(O)c2c1O	Human amnion AV3 cells	inhibition		cytopathic effect		Herpes simplex virus		5 µg/mL	0%
CC(=O)ONc1ccc(S(=O)(=O)N(CC(C)C)C[C@@H](O)[C@H](Cc2ccccc2)NC(=O)CCc2c[nH]c3ccccc23)cc1	CEM	EC50		MTT		SIV			8.4 µM
O=C1C(c2[nH]c3ccc(S(=O)(=O)O)cc3c2O)=Nc2ccc(S(=O)(=O)O)cc21	Human amnion AV3 cells	inhibition		cytopathic effect		Herpes simplex virus		50 µg/mL	0%
Cc1ccc(CCCOc2c(C)cc(-c3nnn(C)n3)cc2C)o1	HeLa	EC50		cytopathic effect		Enterovirus			0.033–0.659 µg/mL
O=S(=O)(O)c1ccc2cc(O)c(S(=O)(=O)O)cc2c1	Human embryonic lung cells	inhibition		cytopathic effect	TYPE 3	Adenovirus		10 µg/mL	43%
CC(C)N=C(N)c1ccc(N2CCN(c3ccccc3)CC2)cc1		inhibition				Pneumocystis carinii		50 µg/mL	88%
O=C(Nc1c(S(=O)(=O)[O-])cc2cc(S(=O)(=O)[O-])cc(O)c2c1O)c1ccccc1	Human amnion AV3 cells	inhibition		cytopathic effect		Rhinovirus		50 µg/mL	85%
CCN=C1NC2C(OC(CO)C(O)C2O)S1	HEK 293	inhibition		flow cytometry		Kaposi sarcoma virus		0.01 µM	17%
O=C(N[C@@H](C(=O)N1CCC[C@H]1c1ncc(-c2ccc(-c3ccc(-c4cnc([C@@H]5CCCN5C(=O)[C@H](NC(=O)C5CC5)c5ccccc5)s4)cc3)cc2)s1)c1ccccc1)C1CC1	Huh7.5	fold resistance		luciferase / reporter gene	genotype 2a	Hepatitis C virus	Y93N		207
Nc1nc2c(ncn2COCCO)c(=O)[nH]1	VERO	EC50		plaque count		Simian varicella-zoster virus			>25 µM
Oc1ccccc1N=Cc1ccc(F)cc1		MIC99			29/10893	Cryptococcus gattii			8 µg/mL
C=C/C(C)=C/[C@@]1(C)SC(=O)C(C)=C1O		MIC			SJ261 (emrB::Tn10 kan)	Escherichia coli			25 µM
NC(=NCCc1ccccc1)c1ccc(N2CCN(c3ccccc3)CC2)cc1		inhibition				Pneumocystis carinii		0.1 µg/mL	0%
CC(=O)ONc1ccc(S(=O)(=O)N(CC(C)C)C[C@@H](O)[C@H](Cc2ccccc2)NC(=O)CN2C(=O)c3ccccc3C2=O)cc1	CEM	EC50		MTT		SIV			2 µM
O=[N+]([O-])c1cc([N+](=O)[O-])c2ccc(S(=O)(=O)O)cc2c1O	Human amnion AV3 cells	inhibition		cytopathic effect	TYPE 3	Adenovirus		5 µg/mL	0%
Nc1ncnc2c1ncn2[C@@H]1C[C@H](N)[C@@H](O)[C@H]1O	CV-1	EC50		cytopathic effect	X-1108	Measles virus			10 µg/mL
Cc1cc(-c2ccc(N=Nc3c(N)c(S(=O)(=O)O)cc4cc(S(=O)(=O)O)ccc34)c(C)c2)ccc1N=Nc1c(N)ccc2cc(S(=O)(=O)O)ccc12	Human amnion AV3 cells	inhibition		cytopathic effect		Rhinovirus		50 µg/mL	0%
O=c1oc2ccc(Br)cc2c(=S)n1-c1ccc(C(F)(F)F)cc1		MIC	21 d		My 235/80	Mycobacterium kansasii			16 µM
O=C(NN1C(=O)CSC1C1C(c2ccccc2)=Nc2ccccc21)N1c2ccccc2C=Cc2ccccc21		zone		agar diffusion	MTCC-1782	Aspergillus terreus		500 µg/mL	6 mm
COc1cc(O)c2c(=O)cc(-c3ccccc3)oc2c1CC=C(C)C	LLC-MK2	inhibition		plaque count	Type 2/Mexican isolate	Dengue virus		12 µM	53.9%
COc1ccc2oc(=S)n(-c3ccc(Cl)c(Cl)c3)c(=S)c2c1		MIC	21 d		6509/96	Mycobacterium kansasii			32 µM
COc1cc(-c2ccc(N=Nc3ccc4c(S(=O)(=O)O)cc(S(=O)(=O)O)c(N)c4c3O)c(OC)c2)ccc1N=Nc1ccc2c(S(=O)(=O)O)cc(S(=O)(=O)O)c(N)c2c1O	Human embryonic lung cells	inhibition		cytopathic effect		Rhinovirus		10 µg/mL	0%
CC(C)CS[C@@H]1C[C@H](n2cnc3c(N)ncnc32)[C@@H](O)[C@H]1O	CV-1	EC50		neutral red		Measles virus			>100 µg/mL
CC(=O)N[C@H]1[C@H]([C@H](O)[C@H](O)CO)OC(C(=O)O)=C[C@@H]1N=C(N)N	MDCK	EC50			H1N1 A/Beijing/252/95	Influenza A virus			2.6 µM
CC(C)(O)c1cn(-c2ccc([N+](=O)[O-])cc2)nn1		inhibition		broth dilution	URM 4261	Candida parapsilosis		2048 µg/mL	0%
Oc1ccccc1N=Cc1ccc2c(c1)OCO2		MIC99			196L/03	Cryptococcus gattii			8 µg/mL
Nc1ncnc2c1ncn2C=C1CC1CO		EC50		plaque count	RCdelta97.19	Human cytomegalovirus			3.9 µM
CCCC(CCC)C(NC(C)=O)C1C(N=C(N)N)CC(C(=O)O)C1O	MDCK	EC50			H1N1 A/NWS/33	Influenza A virus			21 µM
CC(C)CN(C[C@@H](O)[C@H](Cc1ccccc1)NC(=O)[C@H](C)N1C(=O)c2ccccc2C1=O)S(=O)(=O)c1ccc(Br)cc1	CEM	EC50		MTT		SIV			8.9 µM
NC(=NCc1ccc(F)cc1)c1ccc(N2CCN(c3ccccc3)CC2)cc1		inhibition				Pneumocystis carinii		0.1 µg/mL	0%
Nc1ncnc2c1ncn2[C@@H]1CC[C@@H](O)[C@H]1O	CV-1	EC50		cytopathic effect		Measles virus			<0.1 µg/mL
CC(C)(O)c1cn(-c2ccc3ccccc3c2)nn1		inhibition		broth dilution	URM 4127	Candida albicans		2048 µg/mL	0%
Cc1nc(-c2cc(C)c(OCCCc3ccc(C(F)F)nn3)c(C)c2)no1	HeLa	EC50		cytopathic effect		Enterovirus			0.033–0.659 µg/mL
O=C(NN=CC1C(c2ccccc2)=Nc2ccccc21)N1c2ccccc2C=Cc2ccccc21		zone		agar diffusion	MTCC-1782	Aspergillus terreus		1000 µg/mL	5 mm
CC(C)CN(C[C@@H](O)[C@H](Cc1ccccc1)NC(=O)CN1C(=O)c2ccccc2C1=O)S(=O)(=O)c1ccc(Br)cc1	CEM	EC50		MTT		SIV			3.5 µM
S=c1oc2ccc(Br)cc2c(=S)n1-c1cccc(Cl)c1		MIC	21 d		My 235/80	Mycobacterium kansasii			4 µM
CCOC(=O)c1c(C)nc(NCCCCNc2ccnc3cc(Cl)ccc23)nc1-c1ccc(F)cc1		MIC99			23/10993	Cryptococcus gattii			5.7 µg/mL
O=C(Nc1cc(S(=O)(=O)O)cc2cc(S(=O)(=O)O)cc(O)c12)c1ccccc1	Human conjunctiva cells	inhibition		cytopathic effect		Herpes simplex virus		50 µg/mL	10%
Cc1cc(-c2noc(C(F)(F)F)n2)cc(C)c1OCCCc1cccnn1	HeLa	EC50		cytopathic effect		Enterovirus			0.033–0.659 µg/mL
CCOC(=O)c1ccc(OCCC2CCN(c3ccc(C)nn3)CC2)cc1	KB	EC50		neutral red	353 (ICAM-1 receptor group 13)	Rhinovirus			0.108 µM
Cc1nc(NCCCCNc2ccnc3cc(Cl)ccc23)nc(-c2ccccc2)c1C(=O)OC(C)C		MIC99			C-3-1	Cryptococcus neoformans			2 µg/mL
COc1ccc(CCCOc2cc(C)c(-c3noc(C(F)(F)F)n3)c(C)c2)nn1	HeLa	EC50		cytopathic effect		Enterovirus			0.033–0.659 µg/mL
C[C@@H](c1ncncc1F)[C@](O)(Cn1cncn1)c1ccc(F)cc1F		MIC90		broth dilution	VG IIa	Cryptococcus gattii			0.125 µg/mL
CC(=O)c1ccc(CCCOc2cc(C)c(-c3noc(C)n3)c(C)c2)nn1	HeLa	EC50		cytopathic effect		Enterovirus			0.033–0.659 µg/mL
CC(=O)ONc1ccc(S(=O)(=O)N(CC(C)C)C[C@@H](O)[C@H](Cc2ccccc2)NC(=O)Cc2c[nH]c3ccccc23)cc1	CEM	EC50		MTT		SIV			1 µM
O=C(NN1C(=O)CSC1C1C(c2ccccc2)=Nc2ccc(Cl)cc21)N1c2ccccc2C=Cc2ccccc21		zone		agar diffusion	MTCC-1782	Aspergillus terreus		500 µg/mL	12 mm
CC(C)(O)c1cn(-c2cccc3ccccc23)nn1		inhibition		broth dilution	URM 4384	Candida albicans		2048 µg/mL	0%
CC(=O)ONc1ccc(S(=O)(=O)N(Cc2ccccc2)C[C@@H](O)[C@H](Cc2ccccc2)NC(=O)CCN2C(=O)c3ccccc3C2=O)cc1	CEM	EC50		MTT		SIV			5.4 µM
Cc1cc(OCCCc2ccc(C(F)F)nn2)cc(C)c1-c1noc(C(F)F)n1	HeLa	EC50		cytopathic effect		Enterovirus			0.033–0.659 µg/mL
CO[C@H]1/C=C/O[C@@]2(C)Oc3c(C)c(O)c4c(O)c(c(/C=N/N5CCN(C6CCCC6)CC5)c(O)c4c3C2=O)NC(=O)/C(C)=C\C=C\[C@H](C)[C@H](O)[C@@H](C)[C@@H](O)[C@@H](C)[C@H](OC(C)=O)[C@@H]1C		MIC			1296	Mycobacterium avium intracellulare			0.5 µg/mL
CCCCCCCCCCCCN=C(N)c1ccc(N2CCN(c3ccccc3)CC2)cc1		inhibition				Pneumocystis carinii		10 µg/mL	79%
CCOC(=O)c1c(C)nc(NCCCNc2ccnc3cc(Cl)ccc23)nc1-c1ccccc1		MIC99			VM-MCMMPI	Cryptococcus neoformans			8 µg/mL
Cn1cc(C(=O)NCc2ccc(Cl)cc2)c(=O)c2cc(CN3CCOCC3)ccc21	HFF	inhibition		plaque count	DN zoster isolate	Varicella zoster virus		8.5 µM	90%
Cc1nc(-c2cc(C)c(OCCCc3ccc(C=O)o3)c(C)c2)no1	HeLa	EC50		cytopathic effect		Enterovirus			0.033–0.659 µg/mL
N#Cc1cc([N+](=O)[O-])ccc1Oc1ccc(Cl)c(Cl)c1	VERO	inhibition		plaque count	TYPE B4	Coxsackie virus		0.25 µg/mL	31.8%
CC(=O)N[C@H]1[C@H]([C@H](O)[C@H](O)CO)OC(C(=O)O)=C[C@@H]1N=C(N)N	MDCK	EC50		visual reading	H1N1 A/TEXAS/36/91	Influenza A virus			0.14 µM
Fc1ccc(-n2c(=S)oc3ccc(Br)cc3c2=S)cc1		MIC	14 d		6509/96	Mycobacterium kansasii			8 µM
O=S(=O)([O-])c1cc(S(=O)(=O)[O-])c2cc(NS(=O)(=O)c3ccccc3)ccc2c1	Human conjunctiva cells	inhibition		cytopathic effect		Herpes simplex virus		5 µg/mL	0%
CCCCCCCCOC(=O)[C@]1(O)C[C@@H](O)[C@@H](O)[C@H](OC(=O)/C=C/c2ccc(O)c(O)c2)C1		MIC			Speare UMIP 1142.76	Aspergillus parasiticus			<500 µg/mL
Nc1nc2c(ncn2COC(CO)CO)c(=O)[nH]1	MRC-5	EC50		hybridisation	8702REC2 (ALA594VAL)	Human cytomegalovirus			1.8 µM
CC1(C)N=C(N)N=C(N)N1OCCCOc1cc(Cl)c(Cl)cc1Cl		MIC			517	Mycobacterium avium complex			4 µg/mL

The last 5 rows once more:

Fc1ccc(-n2c(=S)oc3ccc(Br)cc3c2=S)cc1 ; measure: MIC ; setting: 14 d ; strain: 6509/96 ; agent: Mycobacterium kansasii ; value: 8 µM
O=S(=O)([O-])c1cc(S(=O)(=O)[O-])c2cc(NS(=O)(=O)c3ccccc3)ccc2c1 ; cell line: Human conjunctiva cells ; measure: inhibition ; method: cytopathic effect ; agent: Herpes simplex virus ; tested at: 5 µg/mL ; value: 0%
CCCCCCCCOC(=O)[C@]1(O)C[C@@H](O)[C@@H](O)[C@H](OC(=O)/C=C/c2ccc(O)c(O)c2)C1 ; measure: MIC ; strain: Speare UMIP 1142.76 ; agent: Aspergillus parasiticus ; value: <500 µg/mL
Nc1nc2c(ncn2COC(CO)CO)c(=O)[nH]1 ; cell line: MRC-5 ; measure: EC50 ; method: hybridisation ; strain: 8702REC2 (ALA594VAL) ; agent: Human cytomegalovirus ; value: 1.8 µM
CC1(C)N=C(N)N=C(N)N1OCCCOc1cc(Cl)c(Cl)cc1Cl ; measure: MIC ; strain: 517 ; agent: Mycobacterium avium complex ; value: 4 µg/mL

Rows are shuffled and stem from different studies. Fold resistance: result on the changed form divided by that on wild type. An empty or dashed field is not shown. Inhibition is in % at the dose shown (toxicity tests: loss of growth or viability). MIC50, MIC90 and the like: level of inhibition, or share of isolates inhibited. ECn: concentration that inhibits the pathogen or its effect by n%. Two numbers with a dash give a range or band.